The entries are a selection whose mix differs from that of the whole data set. The source made the active and inactive calls. No stated cut-off is given here; in the data, active means inhibition above about 30% (passing the limit was not always enough); inactive means the rest.
What follows are molecules tested on MgrA (MarR family transcriptional regulator), Staphylococcus aureus Newman (assay: S. aureus MgrA activity modulators, primary screen, biochemical, S. aureus Newman, fluorescence polarization (AID 602314;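 further: 0% = protein plus DNA without compound and 100% = DNA alone without protein; higher means less MgrA bound to DNA so lower polarization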)). Settings: MgrA-DNA binding, stronger effect = higher value, concentration not given here.
In the case of CC(=O)OC1(C#N)CN2CCC1CC2 (centres undefined), the inhibition is reported as inactive: -1.75%.
With C/C1=C2N=C(/C=C3N=C(/C(C)=C4\[N-][C@@](C)([C@@H]5N=C1[C@](C)(CCC(=O)NC[C@@H](C)OP(=O)([O-])O[C@H]1[C@@H](O)[C@@H](n6cnc7cc(C)c(C)cc76)O[C@@H]1CO)[C@H]5CC(N)=O)[C@@](C)(CC(N)=O)[C@@H]4CCC(N)=O)[C@@](C)(CC(N)=O)[C@@H]\3CCC(N)=O)C(C)(C)[C@@H]/2CCC(N)=O.[C-]#N.[Co+3] the inhibition was inactive: -0.85%.
CC(=O)OC1CN2CCC1C(c1ccccc1)C2 (centres undefined) was tested, and the inhibition was inactive: -3.2%.
For O=C(OCCN1CCN(CCOCc2ccccc2)CC1)C(O)(c1ccccc1)c1ccccc1, the inhibition was inactive: -6.6%.
O=P1(Nc2nc3ccc(Cl)cc3s2)COc2ccccc2O1 (centres undefined) was tested, and the inhibition was inactive: -0.4%.
For COc1cc2c(cc1NP(C)(=O)Oc1ccccc1)oc1ccccc12 (centres undefined), the inhibition was inactive: 1.55%.
O=C(OC1CN2CCC1CC2)c1ccccc1 (centres undefined) was tested, and the inhibition was inactive: -1%.
O=C(OC1/C(=C/c2ccccc2F)N2CCC1CC2)c1ccccc1 (centres undefined) was tested, and the inhibition was inactive: -0.8%.
With CN(C)C(=O)Oc1noc2ccccc12 the inhibition was inactive: 0.5%.
CN(C(=O)Cc1ccc(Cl)c(Cl)c1)[C@H]1CCCC[C@@H]1N1CCCC1 was tested, and the inhibition was inactive: 0.2%.
In the case of CCOP(=Nc1nc2ccccc2n2nnnc12)(OCC)OCC, the inhibition is reported as inactive: 0.65%.
In the case of CP(=O)(Nc1ccccn1)Oc1ccccc1 (centres undefined), the inhibition is reported as inactive: -1.15%.
For CCOP(OCC)N1CCOCC1, the inhibition was inactive: 7.35%.
CP(=O)(Nc1ccc(Cl)cc1)Oc1ccc(F)cc1 (centres undefined) was tested, and the inhibition was inactive: -0.1%.
In the case of CCc1nc2c(n1)c1c(non1O)c1c2no[n+]1[O-], the inhibition is reported as inactive: -1.85%.
With OCCSCCO the inhibition was inactive: 0.35%.
For CP(=O)(Nc1ccc(Cl)cc1)Oc1ccccc1 (centres undefined), the inhibition was inactive: -1.05%.
COc1ccccc1OP(C)(=O)Nc1ccccc1 (centres undefined) was tested, and the inhibition was inactive: -3.6%.
For O=C(O)CCC(=O)N=S(c1ccccc1)c1ccccc1.O=[N+]([O-])c1cc([N+](=O)[O-])c(O)c([N+](=O)[O-])c1, the inhibition was inactive: -1.05%.
For CCn1cccc/c1=N\P1(=S)OCCO1, the inhibition was inactive: -0.75%.
In the case of CN(C)P1(=O)Nc2ccccc2S1 (centres undefined), the inhibition is reported as inactive: 5.65%.
In the case of O=C(OC1CN2CCC1CC2)C12CC3CC(CC(C3)C1)C2 (centres undefined), the inhibition is reported as inactive: 0.35%.
In the case of Cc1cc(C)cc(OP(C)(=O)NCc2ccccc2)c1 (centres undefined), the inhibition is reported as inactive: 0.75%.
For Nc1nonc1OCCOc1nonc1N, the inhibition was inactive: 1.45%.
For CC1=Nc2ccc(C(F)(F)F)cc2C1(C)C, the inhibition was inactive: 0.45%.
For NC(=O)Nc1ccc([As](=O)(O)O)cc1, the inhibition was inactive: 1.7%.
With CC1(C)Nc2ccccc2OP1(=O)c1ccccc1 (centres undefined) the inhibition was inactive: -3.3%.
With O=C(OC1CN2CCC1CC2)c1ccc(Cl)cc1 (centres undefined) the inhibition was inactive: -2%.
In the case of Cc1cccc(OCC(=O)OC2CN3CCC2CC3)c1 (centres undefined), the inhibition is reported as inactive: -0.65%.
In the case of COc1cc(-n2cnnn2)ccc1-n1cnnn1, the inhibition is reported as inactive: 2.95%.
O=P1(Nc2ccccn2)COc2ccccc2OC1 was tested, and the inhibition was inactive: 1.6%.
For Cc1cc(C)cc(OP(C)(=O)Nc2ccc(OC(C)C)cc2)c1 (centres undefined), the inhibition was inactive: 0.8%.
CC1(C)COP(=S)(N(C2=NCCC2)c2ccccc2)OC1 was tested, and the inhibition was inactive: 2.7%.
With Cc1ccc(C(=O)OC2CN3CCC2CC3)cc1 (centres undefined) the inhibition was inactive: -1.3%.
